Values of other authors, collected in PMC7961048, “Hierarchized phosphotarget binding by the seven human 14-3-3 isoforms” (Nature Communications, 2021).

Test system: 14-3-3 isoforms
Settings: Figure 4 panel e, cited from earlier work

Substance: SFN
- number of interactions per isoform (number of 1433 isoforms 1): 26
- number of interactions per isoform (number of 1433 isoforms 2): 1
- number of interactions per isoform (number of 1433 isoforms 3): 1
- number of interactions per isoform (number of 1433 isoforms 4): 1
- number of interactions per isoform (number of 1433 isoforms 5): 1
- number of interactions per isoform (number of 1433 isoforms 6): 7
- number of interactions per isoform (number of 1433 isoforms 7): 14

Substance: YWHAB
- number of interactions per isoform (number of 1433 isoforms 1): 8
- number of interactions per isoform (number of 1433 isoforms 2): 9
- number of interactions per isoform (number of 1433 isoforms 3): 54
- number of interactions per isoform (number of 1433 isoforms 4): 64
- number of interactions per isoform (number of 1433 isoforms 5): 116
- number of interactions per isoform (number of 1433 isoforms 6): 27
- number of interactions per isoform (number of 1433 isoforms 7): 14

Substance: YWHAE
- number of interactions per isoform (number of 1433 isoforms 1): 1
- number of interactions per isoform (number of 1433 isoforms 2): 7
- number of interactions per isoform (number of 1433 isoforms 3): 10
- number of interactions per isoform (number of 1433 isoforms 4): 6
- number of interactions per isoform (number of 1433 isoforms 5): 9
- number of interactions per isoform (number of 1433 isoforms 6): 28
- number of interactions per isoform (number of 1433 isoforms 7): 14

Substance: YWHAG
- number of interactions per isoform (number of 1433 isoforms 1): 50
- number of interactions per isoform (number of 1433 isoforms 2): 80
- number of interactions per isoform (number of 1433 isoforms 3): 70
- number of interactions per isoform (number of 1433 isoforms 4): 70
- number of interactions per isoform (number of 1433 isoforms 5): 119
- number of interactions per isoform (number of 1433 isoforms 6): 27
- number of interactions per isoform (number of 1433 isoforms 7): 14

Substance: YWHAQ
- number of interactions per isoform (number of 1433 isoforms 1): 22
- number of interactions per isoform (number of 1433 isoforms 2): 5
- number of interactions per isoform (number of 1433 isoforms 3): 10
- number of interactions per isoform (number of 1433 isoforms 4): 56
- number of interactions per isoform (number of 1433 isoforms 5): 119
- number of interactions per isoform (number of 1433 isoforms 6): 26
- number of interactions per isoform (number of 1433 isoforms 7): 14

Substance: YWHAZ
- number of interactions per isoform (number of 1433 isoforms 1): 2
- number of interactions per isoform (number of 1433 isoforms 2): 5
- number of interactions per isoform (number of 1433 isoforms 3): 11
- number of interactions per isoform (number of 1433 isoforms 4): 19
- number of interactions per isoform (number of 1433 isoforms 5): 117
- number of interactions per isoform (number of 1433 isoforms 6): 27
- number of interactions per isoform (number of 1433 isoforms 7): 14

Where two headings read alike, the source gives them in different places.
